Consider 10 molecules from PubChem BioAssay AID504832 (National Center for Advancing Translational Sciences (NCATS), 2011).

The entries are a selection whose mix differs from that of the whole data set. Records with an inconclusive call do not appear. A call without a number means that no potency is given here. The source made the active and inactive calls. Calls come from the whole dose curve; as a rule, active = well fitted inhibition curve with a large enough effect; inconclusive = small, poorly fitted or top-dose-only effect, or another doubt; inactive = no such curve, though single readings can be large or run the other way.
Potency is the fitted concentration of half-maximal effect.

The assay in a line: Primary qHTS for delayed death inhibitors of the malarial parasite plastid, 48 hour incubation. Conditions: P. falciparum luciferase growth in erythrocytes; series mostly up to 28.7 µM. An excerpt: The goal of this screen is to discover new antimalarial compounds that act by inhibiting the development of the apicoplast in the malarial parasite Plasmodium falciparum. The biochemical processes that make this organelle essential for erythrocytic stage parasites are not well understood. However, antibiotics such as azithromycin and tetracycline, which target the apicoplast translational machinery, have a potent antimalarial effect.
We have developed a cell-based assay that measures parasite growth based on the expression of an integrated copy of a firefly luciferase reporter. To detect small molecules that cause this "delayed death" phenotype, erythrocytes infected with the luciferase-expressing parasites were incubated with compounds for either one or two generations, corresponding to 48 and 96 hours, respectively. Compounds that inhibit parasite growth in the second generation, but not the first, should be enriched in antimalarials that target the apicoplast. Growth inhibition is detected by a decrease in luciferase activity.
Assay Provider: David Fidock and Eric Ekland, Columbia University
Keywords: NIH Roadmap, MLPCN, MLI, MLSMR, qHTS, NCGC, qHTS, malaria, luciferase, viability
Four microliters of culture medium (RPMI 1640 with 0.5% w/v Albumax (GIBCO), 24 mM sodium bicarbonate and 10 ug/mL gentamycin) were dispensed by a Multi-drop Combi into white solid 1536-well plates (Grenier) and 23 nL compound was added by a pin tool. Four microliters of infected erythrocytes (2% hematocrit, 0.1% parasitemia final concentration) in culture medium were dispensed and the plates incubated for 48 hours at 37 C in 5% CO2. Two microliters of luciferase detection reagent was added and luminescence was detected by a ViewLux (PerkinElmer) reader.
Background: Quantitative high-throughput screening tests each substance at several concentrations.
With `O=[N+]([O-])c1ccc(OP2(=O)COCCO2)cc1` (stereo not given), the Potency result was “inactive”.
`CN(C)CCOC(=O)C(O)(c1ccccc1)C1CCCCC1` (stereo not given): the Potency result was “inactive”.
For the molecule `CN(C)C1(CNC(=O)c2ccc(Cl)c(S(N)(=O)=O)c2)CCCCC1`, the Potency entry was “inactive”.
On to `O=C(OCCN1CCN(CCOCc2ccccc2)CC1)C(O)(c1ccccc1)c1ccccc1`, for which the Potency result is “inactive”.
The entry for `CN(C)CCOC(=O)C(O)(c1ccccc1)C1CCCC1` (stereo not given) is “inactive”; for `O=C(OCCCN1CCCC1)C(O)(c1ccccc1)C1CCCCC1` (stereo not given) it is “inactive”.
The same measure for `CP(=O)(OC12CC3CC(CC(C3)C1)C2)OC12CC3CC(CC(C3)C1)C2`: active: 6.57 µM.
The same measure for `C=C(C=O)CC1CC(O)[C@]2(C)OC3C[C@@H]4OC5C[C@]6(C)O[C@]7(C)CCC8OC9C[C@]%10(C)OC(/C(C)=C\CO)C(O)CC%10OC9CC(C)C8OC7CC6O[C@]5(C)C/C=C\C4OC3CC2O1` (stereo not given in full): active: 10.4 µM; for `CCN(CC)CCCOC(=O)C(O)(c1ccccc1)c1ccccc1`: “inactive”; for `CN(C)C1(CNC(=O)c2ccc(S(C)(=O)=O)cc2)CCCCC1`: “inactive”.
